# Data from ChEMBL document CHEMBL2203066 (J Med Chem, 2012).
# Molecular target: Neuraminidase (Influenza A virus, UniProt Q6Q793)
structure (smiles),measurement,value
CCC(CC)O[C@@H]1C=C(P(=O)(O)O)C[C@H](N)[C@H]1NC(C)=O [TAMIPHOSPHOR],IC50,0.52 nM
